From PMC8594587 (Journal of medicinal chemistry, 2021) come the findings set out here.

In one experiment the test system is HIV-1 F227L+V106A.
Experiment: not given
Format: cell-based. Particulars: EC50 ratio to RPV.
Regarding `Cc1cc(C#N)cc(C)c1Oc1nc(NC2CCN(Cc3ccc(C(N)=O)cc3)CC2)ncc1-c1ccncc1` [Compound 16c, 4-((4-((4-(4-cyano-2,6-dimethylphenoxy)-5-(pyridin-4-yl)pyrimidin-2-yl)amino)piperidin-1-yl)methyl)benzamide], the “fold activity enhancement over RPV, F227L+V106A” value stood at 7.8 fold.

For another experiment, the system named is HIV-2 ROD. The experiment is described as follows: Anti-HIV-2 ROD activity in MT-4 cells, MTT method. Particulars: Human immunodeficiency virus 2, MT4, read-out: EC50 ROD. Format: cell-based. In general terms: Formazan colour is commonly taken as a measure of viable cells.
In the case of `Cc1cc(C#N)cc(C)c1Oc1nc(NC2CCN(Cc3ccc(S(C)(=O)=O)cc3)CC2)ncc1-c1ccncc1` [Compound 16b, 3,5-dimethyl-4-((2-((1-(4-(methylsulfonyl)benzyl)piperidin-4-yl)amino)-5-(pyridin-4-yl)pyrimidin-4-yl)oxy)benzonitrile], the 50% effective concentration (EC50) was over 17.2 µM. Same read-out and setting: under `Cc1cc(C#N)cc(C)c1Oc1nc(NC2CCN(Cc3ccc(C(N)=O)cc3)CC2)ncc1-c1cccs1` [Compound 11c, 4-((4-((4-(4-cyano-2,6-dimethylphenoxy)-5-(thiophen-2-yl)pyrimidin-2-yl)amino)piperidin-1-yl)methyl)benzamide] stands over 9.26 µM; under `Cc1cc(C#N)cc(C)c1Oc1nc(NC2CCN(Cc3ccc(S(C)(=O)=O)cc3)CC2)ncc1-c1ccccc1` [Compound 15b, 3,5-dimethyl-4-((2-((1-(4-(methylsulfonyl)benzyl)piperidin-4-yl)amino)-5-phenylpyrimidin-4-yl)oxy)benzonitrile], over 12.1 µM. Still for that read-out and setting: under `Cc1cc(C#N)cc(C)c1Oc1nc(NC2CCN(Cc3ccc(S(N)(=O)=O)cc3)CC2)ncc1-c1ccco1` [Compound 13a, 4-((4-((4-(4-cyano-2,6-dimethylphenoxy)-5-(furan-2-yl)pyrimidin-2-yl)amino)piperidin-1-yl)methyl)benzenesulfonamide] stands over 11.2 µM. Same read-out and setting: in the case of `Cc1cc(C#N)cc(C)c1Oc1nc(NC2CCN(Cc3ccc(S(N)(=O)=O)cc3)CC2)ncc1-c1ccncc1` [Compound 16a, 4-((4-((4-(4-cyano-2,6-dimethylphenoxy)-5-(pyridin-4-yl)pyrimidin-2-yl)amino)piperidin-1-yl)methyl)benzenesulfonamide] it was over 5.67 µM. Turning to `Cc1cc(C#N)cc(C)c1Oc1nc(NC2CCN(Cc3ccc(S(C)(=O)=O)cc3)CC2)ncc1-c1ccsc1` [Compound 12b, 3,5-dimethyl-4-((2-((1-(4-(methylsulfonyl)benzyl)piperidin-4-yl)amino)-5-(thiophen-3-yl)pyrimidin-4-yl)oxy)benzonitrile], the EC50 was over 4.25 µM. On the same count and under the same terms, under `Cc1cc(C#N)cc(C)c1Oc1nc(NC2CCN(Cc3ccc(S(C)(=O)=O)cc3)CC2)ncc1-c1cccs1` [Compound 11b, 3,5-dimethyl-4-((2-((1-(4-(methylsulfonyl)benzyl)piperidin-4-yl)amino)-5-(thiophen-2-yl)pyrimidin-4-yl)oxy)benzonitrile] stands over 8.38 µM; under `Cc1cc(C#N)cc(C)c1Oc1nc(NC2CCN(Cc3ccc(S(N)(=O)=O)cc3)CC2)ncc1-c1ccccc1` [Compound 15a, 4-((4-((4-(4-cyano-2,6-dimethylphenoxy)-5-phenylpyrimidin-2-yl)amino)piperidin-1-yl)methyl)benzenesulfonamide], over 14.1 µM. Turning to `Cc1cc(C#N)cc(C)c1Oc1nc(NC2CCN(Cc3ccc(S(N)(=O)=O)cc3)CC2)ncc1-c1ccoc1` [Compound 14a, 4-((4-((4-(4-cyano-2,6-dimethylphenoxy)-5-(furan-3-yl)pyrimidin-2-yl)amino)piperidin-1-yl)methyl)benzenesulfonamide], the concentration for a half-maximal effect (EC50) was over 29.1 µM. Same read-out and setting: under `Cc1cc(C#N)cc(C)c1Oc1nc(NC2CCN(Cc3ccc(S(C)(=O)=O)cc3)CC2)ncc1-c1ccoc1` [Compound 14b, 4-((5-(furan-3-yl)-2-((1-(4-(methylsulfonyl)benzyl)piperidin-4-yl)amino)pyrimidin-4-yl)oxy)-3,5-dimethylbenzonitrile] stands over 55.8 µM; under `Cc1cc(C#N)cc(C)c1Oc1nc(NC2CCN(Cc3ccc(C(N)=O)cc3)CC2)ncc1-c1ccco1` [Compound 13c, 4-((4-((4-(4-cyano-2,6-dimethylphenoxy)-5-(furan-2-yl)pyrimidin-2-yl)amino)piperidin-1-yl)methyl)benzamide], over 7.35 µM.

As for `Cc1cc(C#N)cc(C)c1Oc1nc(NC2CCN(Cc3ccc(C(N)=O)cc3)CC2)ncc1-c1ccsc1` [Compound 12c, 4-((4-((4-(4-cyano-2,6-dimethylphenoxy)-5-(thiophen-3-yl)pyrimidin-2-yl)amino)piperidin-1-yl)methyl)benzamide], the concentration giving a half-maximal response (EC50) is over 37.3 µM.

In the next experiment the test system is HIV-1 Y188L. The experiment is described as follows: Activity against mutant HIV-1 strain Y188L in MT-4 cells, MTT method. Format: cell-based. Particulars: EC50 ratio to RPV.
On to `Cc1cc(C#N)cc(C)c1Oc1nc(NC2CCN(Cc3ccc(C(N)=O)cc3)CC2)ncc1-c1ccncc1` [Compound 16c, 4-((4-((4-(4-cyano-2,6-dimethylphenoxy)-5-(pyridin-4-yl)pyrimidin-2-yl)amino)piperidin-1-yl)methyl)benzamide], for which the “fold activity enhancement over RPV, Y188L” value is reported as 11 fold.

Broadly, the EC50 is the concentration that produces a half-maximal response.
